Experimental data from patent US20260124192A1, “COMPOUNDS, COMPOSITIONS, AND METHODS OF TREATING RNA VIRAL INFECTIONS” (priority 2024, published 2026).

Experiments:
Format in all cases: cell-based
[1] = system: SARS-CoV-2 Alpha (B.1.1.7); assay: SARS-CoV-2 IF assay, HeLa-ACE2 (Method 1); conditions: 2% FBS, corrected to 1/4 the apparent value
Norwalk Virus = assay: Norwalk virus CPE assay, HG23 (Method 6); conditions: Norovirus Norwalk Virus, 2% FBS, @ 1.25 μM (concentration corrected to 1/4)
[2] = system: SARS-CoV-2 Beta (B.1.351); assay: SARS-CoV-2 IF assay, HeLa-ACE2 (Method 1); conditions: 2% FBS, corrected to 1/4 the apparent value

Cc1c(-c2ccc(O)cc2)n(Cc2ccc(OCCN3CCCCC3)cc2)c2ccc(O)cc12 [Pipendoxifene]
EC50 ([1]; SARS-CoV-2 Alpha (B.1.1.7)): 299 nM
EC50 ([1]; Severe acute respiratory syndrome coronavirus 2, HeLa-ACE2, SARS-CoV-2 Alpha (B.1.1.7)): 208 nM
percent effect printed in column Corrected EC50 (μM) (Norwalk Virus): 31% @ 1.25
EC50 ([2]; SARS-CoV-2 Beta (B.1.351)): 167 nM
EC50 ([2]; Severe acute respiratory syndrome coronavirus 2, HeLa-ACE2, SARS-CoV-2 Beta (B.1.351)): 263 nM
